# Assay results taken from paper PMC6002428, “Chemical synthesis, characterisation and in vitro and in vivo metabolism of the synthetic opioid MT-45 and its newly identified fluorinated analogue 2F-MT-45 with metabolite confirmation in urine samples from known drug users” (2018).
# Conditions: two analytically confirmed cases of MT-45 intoxication
structure (smiles),measurement,value
C1CCC(N2CCNCC2)CC1,metabolite detected in human urine samples,detected
